Fold change is the IC50 on the isolate divided by the IC50 on a reference virus; 1 = unchanged, higher = more resistant. Changes are given against the subtype B consensus. No active / inactive call. The values were gathered from many studies (numbered anew) with different assays, which the source does not name. Most viruses are clinical isolates; some are laboratory strains or clones with known resistance changes. Isolates with mixed residues are left out; stretches that were not sequenced show no change. Round top values that many isolates share are read here as limits; other very high values and 0.1 may be limits too.
Tests used:
Test in all cases: fold change of IC50 against reference virus; higher = more resistant
stavudine = compound: Cc1cn([C@H]2C=C[C@@H](CO)O2)c(=O)[nH]c1=O [stavudine]
Protocol: (§1)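 Cell-culture drug susceptibility tests of virus bearing the reverse transcriptase of each isolate, gathered from many studies.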

zalcitabine = compound: Nc1ccn([C@H]2CC[C@@H](CO)O2)c(=O)n1 [zalcitabine]
Protocol: as §1

didanosine = compound: O=c1[nH]cnc2c1ncn2[C@H]1CC[C@@H](CO)O1 [didanosine]
Protocol: as §1

abacavir = compound: Nc1nc(NC2CC2)c2ncn([C@H]3C=C[C@@H](CO)C3)c2n1 [abacavir]
Protocol: as §1

tenofovir = compound: C[C@H](Cn1cnc2c(N)ncnc21)OCP(=O)(O)O [tenofovir]
Protocol: as §1

zidovudine = compound: Cc1cn([C@H]2C[C@H](N=[N+]=[N-])[C@@H](CO)O2)c(=O)[nH]c1=O [zidovudine]
Protocol: as §1

delavirdine = compound: CC(C)Nc1cccnc1N1CCN(C(=O)c2cc3cc(NS(C)(=O)=O)ccc3[nH]2)CC1 [delavirdine]
Protocol: as §1

efavirenz = compound: O=C1Nc2ccc(Cl)cc2[C@@](C#CC2CC2)(C(F)(F)F)O1 [efavirenz]
Protocol: as §1

nevirapine = compound: Cc1ccnc2c1NC(=O)c1cccnc1N2C1CC1 [nevirapine]
Protocol: as §1

Test System: HIV-1 isolate 497 (reverse transcriptase changes: K122E F214L A272P K277R M357T A376T A400T N447S D460N S468T S519N, study 63)
- fold change of IC50 against reference virus (stavudine): 0.8
- fold change of IC50 against reference virus (zalcitabine): 0.9
- fold change of IC50 against reference virus (didanosine): 0.8
- fold change of IC50 against reference virus (abacavir): 0.9
- fold change of IC50 against reference virus (tenofovir): 0.9
- fold change of IC50 against reference virus (zidovudine): 0.8

Test System: HIV-1 isolate 1066 (reverse transcriptase changes: K70E K122E F214L A272P K277R A376T A400T D460N S468T H483Y K512Q S519N, study 94)
- fold change of IC50 against reference virus (stavudine): 1.1
- fold change of IC50 against reference virus (zalcitabine): 0.7
- fold change of IC50 against reference virus (didanosine): 1
- fold change of IC50 against reference virus (tenofovir): 1.2
- fold change of IC50 against reference virus (zidovudine): 0.5

Test System: HIV-1 isolate 181 (reverse transcriptase changes: K65R K122E M184V F214L A272P K277R M357T A376T A400T N447S D460N S468T S519N, study 63)
- fold change of IC50 against reference virus (stavudine): 1
- fold change of IC50 against reference virus (zalcitabine): 4.6
- fold change of IC50 against reference virus (didanosine): 3.6
- fold change of IC50 against reference virus (abacavir): 10
- fold change of IC50 against reference virus (tenofovir): 1.2
- fold change of IC50 against reference virus (zidovudine): 0.3

Test System: HIV-1 isolate 232 (reverse transcriptase changes: K122E M184V F214L A272P K277R M357T A376T A400T N447S D460N S468T S519N, study 63)
- fold change of IC50 against reference virus (stavudine): 0.9
- fold change of IC50 against reference virus (zalcitabine): 2
- fold change of IC50 against reference virus (didanosine): 1.4
- fold change of IC50 against reference virus (abacavir): 3.9
- fold change of IC50 against reference virus (tenofovir): 0.5
- fold change of IC50 against reference virus (zidovudine): 0.3

Test System: HIV-1 isolate 1147 (reverse transcriptase changes: L74V K122E M184V F214L A272P K277R M357T A376T A400T N447S D460N S468T S519N, study 63)
- fold change of IC50 against reference virus (stavudine): 0.9
- fold change of IC50 against reference virus (zalcitabine): 2.5
- fold change of IC50 against reference virus (didanosine): 2.4
- fold change of IC50 against reference virus (abacavir): 8.5
- fold change of IC50 against reference virus (tenofovir): 0.4
- fold change of IC50 against reference virus (zidovudine): 0.3

Test System: HIV-1 isolate 33 (reverse transcriptase changes: A62V V75I F77L F116Y K122E Q151M F214L A272P K277R A376T A400T D460N S468T H483Y K512Q S519N, study 94)
- fold change of IC50 against reference virus (zalcitabine): 7.2
- fold change of IC50 against reference virus (tenofovir): 0.8
- fold change of IC50 against reference virus (zidovudine): 38.8

Test System: HIV-1 isolate 217 (reverse transcriptase changes: T69D K122E F214L A272P K277R A376T A400T D460N S468T H483Y K512Q S519N, study 94)
- fold change of IC50 against reference virus (stavudine): 4
- fold change of IC50 against reference virus (zalcitabine): 4.2
- fold change of IC50 against reference virus (tenofovir): 3
- fold change of IC50 against reference virus (zidovudine): 0.1

Test System: HIV-1 isolate 121 (reverse transcriptase changes: K122E F214L A272P K277R A376T A400T D460N S468T H483Y K512Q S519N, study 94)
- fold change of IC50 against reference virus (stavudine): 1
- fold change of IC50 against reference virus (zalcitabine): 1
- fold change of IC50 against reference virus (didanosine): 1
- fold change of IC50 against reference virus (tenofovir): 1
- fold change of IC50 against reference virus (zidovudine): 1

Test System: HIV-1 isolate 618 (reverse transcriptase changes: V21I S162C Q207E A272P K277R, study 100)
- fold change of IC50 against reference virus (delavirdine): 0.5
- fold change of IC50 against reference virus (stavudine): 1
- fold change of IC50 against reference virus (efavirenz): 0.4
- fold change of IC50 against reference virus (didanosine): 0.9
- fold change of IC50 against reference virus (nevirapine): 0.4
- fold change of IC50 against reference virus (abacavir): 0.7
- fold change of IC50 against reference virus (tenofovir): 1
- fold change of IC50 against reference virus (zidovudine): 0.5

Test System: HIV-1 isolate 728 (reverse transcriptase changes: V75I F77L K102Q F116Y Q151M S162C K277R, study 108)
- fold change of IC50 against reference virus (delavirdine): 2
- fold change of IC50 against reference virus (stavudine): 14.4
- fold change of IC50 against reference virus (efavirenz): 1
- fold change of IC50 against reference virus (didanosine): 200
- fold change of IC50 against reference virus (nevirapine): 2
- fold change of IC50 against reference virus (abacavir): 15
- fold change of IC50 against reference virus (tenofovir): 4
- fold change of IC50 against reference virus (zidovudine): 123

Test System: HIV-1 isolate 96 (reverse transcriptase changes: V35T K49R K65R A98G K101E K122E A158S E169D V179D G190A R211A V245M, study 134)
- fold change of IC50 against reference virus (delavirdine): 5.9
- fold change of IC50 against reference virus (stavudine): 1.9
- fold change of IC50 against reference virus (efavirenz): 1500
- fold change of IC50 against reference virus (didanosine): 3
- fold change of IC50 against reference virus (nevirapine): 893
- fold change of IC50 against reference virus (abacavir): 3.6
- fold change of IC50 against reference virus (tenofovir): 3.8
- fold change of IC50 against reference virus (zidovudine): 0.7

Test System: HIV-1 isolate 1478 (reverse transcriptase changes: K49R D67G K70E K103N T128A I135M M184V T200A E204D R211K K219R A272P V276I K281R T286A E297K, study 15)
- fold change of IC50 against reference virus (delavirdine): 95
- fold change of IC50 against reference virus (stavudine): 0.8
- fold change of IC50 against reference virus (efavirenz): 23
- fold change of IC50 against reference virus (didanosine): 1.5
- fold change of IC50 against reference virus (nevirapine): 85
- fold change of IC50 against reference virus (abacavir): 3
- fold change of IC50 against reference virus (tenofovir): 0.6
- fold change of IC50 against reference virus (zidovudine): 0.3

Test System: HIV-1 isolate 1105 (reverse transcriptase changes: P1L V35I S48T V60I D67N K70R D121H K122E K166R D177E G196E I202V T215F K219E, study 15)
- fold change of IC50 against reference virus (delavirdine): 0.5
- fold change of IC50 against reference virus (stavudine): 1.8
- fold change of IC50 against reference virus (efavirenz): 0.5
- fold change of IC50 against reference virus (didanosine): 1.2
- fold change of IC50 against reference virus (nevirapine): 0.3
- fold change of IC50 against reference virus (abacavir): 1.7
- fold change of IC50 against reference virus (tenofovir): 1.5
- fold change of IC50 against reference virus (zidovudine): 51

Test System: HIV-1 isolate 1474 (reverse transcriptase changes: K102Q S162C K277R I293V R358K V435I S468P K550G, study 145)
- fold change of IC50 against reference virus (delavirdine): 0.5
- fold change of IC50 against reference virus (stavudine): 0.9
- fold change of IC50 against reference virus (efavirenz): 0.6
- fold change of IC50 against reference virus (didanosine): 0.9
- fold change of IC50 against reference virus (nevirapine): 0.5
- fold change of IC50 against reference virus (abacavir): 0.8
- fold change of IC50 against reference virus (tenofovir): 0.9
- fold change of IC50 against reference virus (zidovudine): 0.7
